Target: SARS‐CoV‐2 RdRp complex (nsp12, nsp7, nsp8) (Severe acute respiratory syndrome coronavirus 2, UniProt P0DTD1)
Assay: Fluorescence-based RdRp polymerase assay (SYBR Green I RNA extension)
Type: biochemical
Conditions: 50 min, read-out: residual activity (RA) of the SARS‐CoV‐2 RdRp complex

Which remaining activity at 10 µM does the source give for `CNC(=O)c1cc(Oc2ccc(NC(=O)Nc3ccc(Cl)c(C(F)(F)F)c3)cc2)ccn1` [sorafenib, reference compound] here?
Its remaining activity at 10 µM is 72%.
